Pooled drug test results. Numbers come from NIAID ChemDB, via PubChem.

Conditions beyond the fields shown may differ between rows.

| smiles | target | test | endpoint | organism | strain or isolate | tested at | method | result |
|---|---|---|---|---|---|---|---|---|
| COc1cccc(N2CCN(c3cncc(-c4ccc(SC)cc4)n3)CC2)c1 | UL97 kinase | target | inhibition | Cytomegalovirus |  | 1 µM |  | <50% |
| O=S(=O)([O-])Nc1cccc(NS(=O)(=O)[O-])c1.[Na+].[Na+] |  | culture | MIC | Mycobacterium tuberculosis | H37Rv |  |  | >100 µg/mL |
| CCOc1ccc(N=Nc2sc(N)nc2-c2ccccc2)cc1 |  | culture | MIC bound | Mycobacterium tuberculosis | H37Rv |  | BACTEC | >6.25 µg/mL |
| Cc1ccc(N2CCN(c3cncc(-c4cccc5ccccc45)n3)CC2)cc1 | UL97 kinase | target | IC50 | Cytomegalovirus |  |  |  | <100 µM |
| COc1cc(C=O)c(-c2cc3c(cc2C2(C)OCCS2)OCO3)c(OC)c1OC |  | culture | inhibition | Mycobacterium tuberculosis | H37Rv | 12.5 µg/mL | BACTEC | 12% |
| FC(F)(F)c1ccc(-c2cncc(N3CCN(c4cnccn4)CC3)n2)cc1 | UL97 kinase | target | inhibition | Cytomegalovirus |  | 1 µM |  | <50% |
| c1ccc(N=C2SC3=Nc4cccc5cccc(c45)N3C2=Nc2ccccc2)cc1 |  | culture | inhibition | Mycobacterium tuberculosis | H37Rv | 12.5 µg/mL | BACTEC | -10% |
| COc1ccc(-c2nc3ccc(N)cc3nc2-c2ccc(OC)cc2)cc1 |  | culture | MIC | Mycobacterium tuberculosis | H37Rv |  |  | >100 µg/mL |
| CN(Cc1cnc2nc(N)nc(N)c2n1)c1ccc(C(=O)N[C@@H](CCC(=O)O)C(=O)O)c(Cl)c1Cl |  | culture | inhibition | Mycobacterium tuberculosis | H37Rv | 12.5 µg/mL | BACTEC | -23% |
| O=C1c2ccc(O)c(O)c2C(=O)c2c(O)ccc(O)c21 |  | culture | MIC | Mycobacterium tuberculosis | H37Rv |  |  | >100 µg/mL |
| Fc1ccc(N2CCCCC2)c(NC(=S)c2ccncc2)c1 | GRK5 | host protein | inhibition |  |  | 10 µM | kinase activity | 2% |
| O=[N+]([O-])c1cccc(O)c1 |  | culture | MIC | Mycobacterium tuberculosis | H37Rv |  |  | >100 µg/mL |
| O=C(Nc1cc2c(oc1=O)CCCCCC2)c1cnccn1 |  | culture | inhibition | Mycobacterium tuberculosis | H37Rv | 6.25 µg/mL | BACTEC | 17% |
| Fc1ccccc1N1CCN(c2cncc(-c3csc4ccccc34)n2)CC1 | UL97 kinase | target | inhibition | Cytomegalovirus |  | 10 µM |  | >15% |
| O=C1C=C(Nc2nc(C(=O)O)cc(=O)[nH]2)c2ccccc2C1=O |  | culture | inhibition | Mycobacterium tuberculosis | H37Rv | 12.5 µg/mL | BACTEC | 0% |
| CCOC(=O)CO |  | culture | MIC | Mycobacterium tuberculosis | H37Rv |  |  | >100 µg/mL |
| CC(=O)c1ccc(N2CCN(c3cncc(-c4ccc(F)cc4)n3)CC2)cc1 | UL97 kinase | target | IC50 | Cytomegalovirus |  |  |  | <10 µM |
| O=C(O)c1ccc(S(=O)(=O)O)cc1O |  | culture | MIC | Mycobacterium tuberculosis | H37Rv |  |  | >100 µg/mL |
| CC(=O)c1cnc(NN)nc1C |  | culture | inhibition | Mycobacterium tuberculosis | H37Rv | 12.5 µg/mL | BACTEC | 33% |
| COc1ccccc1N1CCN(c2cncc(-c3ccccc3C(C)=O)n2)CC1 | UL97 kinase | target | inhibition | Cytomegalovirus |  | 10 µM |  | >15% |
| CCCCCCCCCc1c(N)[nH]c(=S)[nH]c1=O |  | culture | MIC | Mycobacterium tuberculosis | H37Rv |  |  | >100 µg/mL |

Repeating the final 2 entries:

smiles,target,test,endpoint,organism,strain or isolate,tested at,method,result
COc1ccccc1N1CCN(c2cncc(-c3ccccc3C(C)=O)n2)CC1,UL97 kinase,target,inhibition,Cytomegalovirus,,10 µM,,>15%
CCCCCCCCCc1c(N)[nH]c(=S)[nH]c1=O,,culture,MIC,Mycobacterium tuberculosis,H37Rv,,,>100 µg/mL

Percent inhibition refers to the dose given; in toxicity tests it is the harm to the cells. Blank or dashed fields: not listed here. MIC bound comes from a single tested concentration. ICn is the concentration giving n% inhibition.